# Literature values as cited in US4500516A, “Antibacterial pharmaceutical composition” (priority 1982, dated 1985).
# System: pathogenic microorganisms
# Conditions: cited from earlier work
smiles,measurement,setting,value
O=C1CN(N=CC=Cc2ccc([N+](=O)[O-])o2)C(=O)N1,development of drug resistance,microorganisms,practically no drug resistance
same,activity against resistant strains,pathogenic strains of staphylococci and microorganisms resistant to other chemotherapeutic agents and antibiotics,retains its activity
